Chains of the proteins cited; added tags and fusions are not shown. Lines headed by an entry give the natural chain unless they say otherwise; changes in a name come on top.
UniProt P21729: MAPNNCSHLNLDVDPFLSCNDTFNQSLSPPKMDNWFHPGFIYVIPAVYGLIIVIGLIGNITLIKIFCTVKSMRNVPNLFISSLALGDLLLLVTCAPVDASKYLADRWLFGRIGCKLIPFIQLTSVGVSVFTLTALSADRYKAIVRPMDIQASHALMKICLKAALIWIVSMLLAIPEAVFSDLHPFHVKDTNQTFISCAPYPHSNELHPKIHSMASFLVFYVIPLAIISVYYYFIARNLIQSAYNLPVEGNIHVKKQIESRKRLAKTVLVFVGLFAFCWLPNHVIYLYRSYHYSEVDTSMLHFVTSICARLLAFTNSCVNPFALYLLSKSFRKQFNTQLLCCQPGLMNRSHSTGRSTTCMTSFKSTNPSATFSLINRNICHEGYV

According to US20080051315A1, “Grp Receptor-Related Methods for the Treating and Preventing Fear-Related Disorders” (priority 2003, published 2008):

Target: GRPR (Mus musculus, UniProt P21729)
Assay type: cell-based

Substance: gastrin-releasing peptide [GRP]
- effect of GRP on frequency of sIPSCs in the presence of TTX: TTX-sensitive
